A mixed list of measured activities; the numbers were collected in NIAID ChemDB.

Shared fields: tests on isolated targets; organism: Hepatitis C virus

ICn is the concentration giving n% inhibition.

structure,target,measure,dose,result
O=C(O)c1ccc2cc(NC(=O)c3ccc4c(c3)nc(-c3ccc5nc(-c6ccccc6)cnc5c3)n4C3CCCCC3)ccc2c1,NS5B polymerase,inhibition,100 µM,98.99%
CC(=O)c1ccc(-c2cc(NS(=O)(=O)c3ccccc3C)c(C(=O)O)s2)s1,NS3 ATPase,IC50,,<5 µM
O=C(O)c1nc(-c2ccccc2NS(=O)(=O)c2c(F)cc(Br)cc2F)[nH]c(=O)c1O,HCV polymerase,IC50,,<100 µM
COc1ccc(-c2ccc(Cl)cc2)c(-c2ccc3cc(-c4nc5cc(C(=O)O)ccc5n4CC4CCCO4)ccc3n2)c1,NS5B polymerase,inhibition,100 µM,100%
Nc1cccc(-c2nc(C(=O)O)c(O)c(=O)[nH]2)c1,HCV polymerase,IC50,,<100 µM
CNC(=O)c1c(-c2ccc(F)cc2)oc2cc(S(=O)(=O)N3CCC(O)C3)c(OC(C)C)cc12,Nonstructural protein 5B,IC50,,≤0.5 µM
O=C(NCc1ccccc1C(F)(F)F)Nc1ccccc1-c1nc(C(=O)O)c(O)c(=O)[nH]1,HCV polymerase,IC50,,<100 µM
COc1cccc(CN(C(=O)c2ccc(C)cc2)c2cc(-c3ccccc3)sc2C(=O)O)c1,NS3 ATPase,IC50,,<5 µM
CS(=O)(=O)c1ccc(-c2ccc(-c3nc4cc(C(=O)O)[nH]n4c(=O)c3C3CCCCC3)cc2)cc1,RNA-dependent RNA polymerase,IC50,,1–10 µM
O=C(Nc1cscc1-c1nc(C(=O)O)c(O)c(=O)[nH]1)NS(=O)(=O)c1ccc(-c2ccccc2)cc1,HCV polymerase,IC50,,<25 µM
c1cc(OCC2CC2)cc(-c2cnc3c(-c4nn[nH]n4)cnn3c2C2CCCCC2)c1,RNA-dependent RNA polymerase,IC50,,1–10 µM
COC(COC(=O)Nc1ccsc1-c1nc(C(=O)O)c(O)c(=O)[nH]1)c1ccccc1,HCV polymerase,IC50,,<25 µM
Cc1ccc(CN(C(=O)C2CCC2)c2cc(-c3ccccc3)sc2C(=O)O)cc1,NS3 ATPase,IC50,,<5 µM
O=C(O)c1ccc2c(c1)nc(-c1ccc3nc(-c4cccc5ccccc45)ccc3c1)n2C1CCCCC1,NS5B polymerase,inhibition,100 µM,101%
CNC(=O)c1c(-c2ccc(F)cc2)oc2cc(C=O)c(OC(C)C)cc12,Nonstructural protein 5B,IC50,,≤0.5 µM
O=C(O)c1cc2nc(-c3ccc(F)cc3)cc(-c3ccc(Cl)cc3Cl)n2n1,RNA-dependent RNA polymerase,IC50,,>10 µM
CN(C)CCNC(=O)c1ccc(-c2ccc(Cl)cc2)c(-c2ccc3cc(-c4nc5cc(C(=O)O)ccc5n4C4CCCCC4)ccc3n2)c1,NS5B polymerase,inhibition,100 µM,99.95%
CNC(=O)c1c(-c2ccc(F)cc2)oc2cc(N(C)S(C)(=O)=O)c(OCc3nn(C)cc3Cl)cc12,Nonstructural protein 5B,IC50,,≤0.5 µM
COc1ccc(-c2ccc(O)cc2)c(-c2ccc3cc(-c4nc5cc(C(=O)O)ccc5n4C4CCCCC4)ccc3n2)c1,NS5B polymerase,inhibition,100 µM,98.24%
O=C(O)c1nc(-c2ccccc2NS(=O)(=O)c2ccc(Br)cc2)[nH]c(=O)c1O,HCV polymerase,IC50,,<100 µM
O=C(O)COc1cccc(-c2ccc3cc(-c4nc5cc(C(=O)O)ccc5n4C4CCCCC4)ccc3n2)c1,NS5B polymerase,inhibition,33 µM,97.29%
O=C(O)c1cnn2c(-c3cccc(-c4ccsc4)c3)ccnc12,RNA-dependent RNA polymerase,IC50,,>10 µM
O=C(NCc1cccc(CO)c1)Nc1ccsc1-c1nc(C(=O)O)c(O)c(=O)[nH]1,HCV polymerase,IC50,,<25 µM
CNC(=O)c1c(-c2ccc(F)cc2)oc2cc(C)c(OC(C)C)cc12,Nonstructural protein 5B,IC50,,≤0.5 µM
CC(C)N(C(=O)c1ccc(Cl)cc1N)c1cc(-c2ccccc2)sc1C(=O)O,NS3 ATPase,IC50,,<5 µM
O=C(O)c1cc2nc(-c3ccc(Cl)cc3)cc(-c3ccc(OCc4ccccc4)cc3)n2n1,RNA-dependent RNA polymerase,IC50,,1–10 µM
O=C(NC(Cc1ccc(C(=O)c2ccccc2)cc1)C(=O)O)c1ccc2c(c1)nc(-c1ccc3nc(-c4ccccc4)cnc3c1)n2C1CCCCC1,NS5B polymerase,inhibition,33 µM,98%
CCOC(=O)c1cnn2c(-c3ccccc3)c(-c3ccc(OCc4ccccc4)cc3)cnc12,RNA-dependent RNA polymerase,IC50,,>10 µM
COc1ccc(-c2ccc(N(C)C)cc2)c(-c2ccc3cc(-c4nc5cc(C(=O)O)ccc5n4C4CCCCC4)ccc3n2)c1,NS5B polymerase,inhibition,100 µM,101%
CC(C)N(C(=O)c1ccc(Cl)cc1I)c1cc(-c2ccccc2)sc1C(=O)O,NS3 ATPase,IC50,,<5 µM
COC(=O)c1cnn2c(-c3ccc(OCc4ccccc4)cc3)c(-c3ccccc3)cnc12,RNA-dependent RNA polymerase,IC50,,>10 µM

The first 2 rows once more:

O=C(O)c1ccc2cc(NC(=O)c3ccc4c(c3)nc(-c3ccc5nc(-c6ccccc6)cnc5c3)n4C3CCCCC3)ccc2c1 ; target: NS5B polymerase ; measure: inhibition ; dose: 100 µM ; result: 98.99%
CC(=O)c1ccc(-c2cc(NS(=O)(=O)c3ccccc3C)c(C(=O)O)s2)s1 ; target: NS3 ATPase ; measure: IC50 ; result: <5 µM

Conditions beyond the fields shown may differ between rows. An empty or dashed field is not shown. Two numbers with a dash give a range or band. Percent inhibition refers to the dose given; in toxicity tests it is the harm to the cells.